# Source: the NIST ThermoML archive (doi:10.1016/j.fluid.2014.05.010)
# Conditions: 101.33 kPa, Liquid, Vibrating tube method
Structure (SMILES),mass density (278.15 K) [kg/m3],mass density (283.15 K) [kg/m3],mass density (288.15 K) [kg/m3],mass density (293.15 K) [kg/m3],mass density (298.15 K) [kg/m3],mass density (303.15 K) [kg/m3],mass density (308.15 K) [kg/m3],mass density (313.15 K) [kg/m3],mass density (318.15 K) [kg/m3],mass density (323.15 K) [kg/m3],mass density (328.15 K) [kg/m3],mass density (333.15 K) [kg/m3],mass density (338.15 K) [kg/m3],mass density (343.15 K) [kg/m3],mass density (348.15 K) [kg/m3],mass density (353.15 K) [kg/m3]
CCC[N+](C)(CC)CC.O=S(=O)(F)[N-]S(=O)(=O)F,1302.93 ± 1,1299.07 ± 1,1295.18 ± 1,1291.32 ± 1,1287.47 ± 1,1283.63 ± 1,1279.61 ± 1,1275.77 ± 1,1271.01 ± 1,1267.53 ± 1,1264.67 ± 1,1259.93 ± 1,1254.21 ± 1,1251.49 ± 1,1247.1 ± 1,1246.11 ± 1
CCC[N+]1(C)CCCCC1.O=S(=O)(F)[N-]S(=O)(=O)F [1-methyl-1-propylpiperidinium bis(fluorosulfonyl)imide],1336.17 ± 1,1332.19 ± 1,1328.29 ± 1,1324.44 ± 1,1320.58 ± 1,1316.72 ± 1,1312 ± 1,1308.09 ± 1,1304.8 ± 1,1300.04 ± 1,1297.11 ± 1,1292.38 ± 1,1288.66 ± 1,1284.35 ± 1,1280 ± 1,1277.58 ± 1
CCC[N+]1(C)CCCC1.O=S(=O)(F)[N-]S(=O)(=O)F [1-methyl-1-propylpyrrolidinium bis(fluorosulfonyl)amide],1355.55 ± 1,1351.48 ± 1,1347.41 ± 1,1343.37 ± 1,1339.33 ± 1,1335.34 ± 1,1331.36 ± 1,1326.23 ± 1,1323.45 ± 1,1319.53 ± 1,1315.63 ± 1,1311.75 ± 1,1307.88 ± 1,1304.04 ± 1,1300.21 ± 1,1296.41 ± 1

# Numbers after ± are expanded uncertainties.
